Results reported in publication PMC11617747 (Heliyon, 2024).
Construct, isoform or probe ends are uncertain for at least one entry. Where a protein sequence is shown, tags need not be part of it.

Biological target: T1, C-MabR (UniProt P9WPH5)
T1 sequence (looked up): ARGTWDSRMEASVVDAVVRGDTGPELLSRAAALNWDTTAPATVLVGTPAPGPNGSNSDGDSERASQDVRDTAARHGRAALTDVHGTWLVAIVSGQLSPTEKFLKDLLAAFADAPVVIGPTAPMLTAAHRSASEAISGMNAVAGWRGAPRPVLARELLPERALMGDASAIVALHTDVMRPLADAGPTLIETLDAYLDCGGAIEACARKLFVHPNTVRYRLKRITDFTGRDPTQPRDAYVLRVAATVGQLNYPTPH
Assay: TSA (isothermal analysis)
Conditions: 49 C, room temperature 30 min, recombinant protein, residues 161-414, protein details: N-terminal 6xHis (pET28a)

GTTTTGTTGGTTATATACAAAAA (double strand) [23-bp FAS-II promoter dsDNA]
Kd: 3 µM
